# Data as given in PubChem BioAssay AID1259414 (Drosophila RNAi Screening Center, 2018)
# Purpose: 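Fly genes that alter Wolbachia amount inside host cells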 (primary screen)
# Cell system: Drosophila JW18 cells infected with Wolbachia
# Knock-down reagent: long dsRNA against Drosophila genes, 0.25 µg dsRNA per well of a 384-well plate
# Duration: 5 days
# Challenge: cells persistently infected with Wolbachia before knock-down; no added drug
# Measured: 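Imaged fluorescence in situ signal for Wolbachia 23S rRNA per DAPI-counted host cell, given as a robust z-score within each plate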
# Scale: Wolbachia per cell robust z: higher = more Wolbachia per host cell than the plate typical
# Active means: 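Hit when robust z is 1.5 or more, or -1.5 or less, in at least two of three replicates; excludes dsRNAs with several or no targets, genes not expressed in JW18 and well A1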
# The deposit covers about 24,000 reagents; below is a random part of those that have a named target and a result. Over the whole deposit, about 1,210 (5%) were called active. 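Inactive calls also include excluded dsRNAs with several or no targets, genes unexpressed in JW18, and well A1, regardless of score.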 Unmarked entries are inactive. The numbers tell different reagents against one gene apart. Reagent sequences are not shown.
The opening 2 records, to show the layout:
gene,dsRNA no.,"Wolbachia per cell robust z, rep 1","Wolbachia per cell robust z, rep 2","Wolbachia per cell robust z, rep 3"
CG3494,1,-1.27,0.212,0.507
l(2)k01209,1,0.292,0.365,0.361

The listing, from the start:
gene,dsRNA no.,"Wolbachia per cell robust z, rep 1","Wolbachia per cell robust z, rep 2","Wolbachia per cell robust z, rep 3"
CG3494,1,-1.27,0.212,0.507
l(2)k01209,1,0.292,0.365,0.361
l(2)k01209,2,-0.581,-0.782,-0.112
CG8312,1,-5.37,-1.49,0.298
CG5614,1,-0.207,-0.781,-0.911
Pus10,1,1.22,-8.16,1.03
fj,1,0.262,0.179,1.17
fj,2,-0.163,-0.783,-6.15
fj,3,0.695,0.744,0.135
CG7916,1,-1.01,-1.6,-0.0716
jhamt,1,-0.048,-0.847,-1.17
Dora,1,0.0765,0.671,1.02
Dora,2,0.505,0.277,0.516
Dora,3,-0.426,-0.542,-1.16
Dora,4,-0.127,-0.343,-0.257
Dora,5,-1.03,-0.232,2.02
Dora,6,-0.421,0.534,0.978
Drak,1,1.29,-0.529,-1.99
Drak,2,0.179,0.372,-1.06
Drak,3,-1.26,0.0099,0.577
CG11964,1,-0.0772,-0.166,-2.3
CG11964,2,-0.17,0.917,0.501
lncRNA:CR32835,1,0.535,0.0519,1.35
lncRNA:CR32835,2,-1.6,-0.377,-0.179
CG16986,1,-2.28,-2.12,-2.97
Cndp2,1,0.597,-0.0081,-3.39
RnpS1,1,0.851 (active),1.52,2.27
lncRNA:CR30055,1,0.339,0.284,0.371
lncRNA:CR30055,2,1.09,0.833,0.326
